Results of unrelated studies side by side (data: NIAID ChemDB).

Shared fields: enzyme or target tests

Two numbers with a dash give a range or band.

| smiles | target | organism | method | endpoint | tested at | result |
|---|---|---|---|---|---|---|
| Oc1ccc(-c2cnc3c(-c4nn[nH]n4)cnn3c2C2CCCCC2)cc1 | RNA-dependent RNA polymerase | Hepatitis C virus | - | IC50 | - | >10 µM |
| Cc1ccc(N2CCN(c3cncc(-c4cccc(C)c4)n3)CC2)cc1 | UL97 kinase | Cytomegalovirus | - | IC50 | - | <100 µM |
| COc1cccc(-c2cc(-c3ccccc3)nc3cc(C(=O)O)nn23)c1 | RNA-dependent RNA polymerase | Hepatitis C virus | - | IC50 | - | >10 µM |
| CC(C)(CCCCNC(=O)CO)CN(C[C@@H](O)[C@H](Cc1ccccc1)NC(=O)O[C@H]1CO[C@H]2OCC[C@H]21)S(=O)(=O)c1ccc2c(c1)OCO2 | Protease | HIV-1 | fluorescence | Ki | - | <0.001 µM |
| Cn1nc(C(F)(F)F)cc1-c1ccc(S(=O)(=O)Nc2ccccc2-c2nc(C(=O)O)c(O)c(=O)[nH]2)s1 | HCV polymerase | Hepatitis C virus | - | IC50 | - | <100 µM |
| CCOC(=O)c1cc2nc(-c3ccc(F)cc3)cc(-c3ccc(Cl)cc3)n2n1 | RNA-dependent RNA polymerase | Hepatitis C virus | - | IC50 | - | >10 µM |
| COC(=O)CCS(=O)(=O)N(C)c1cc(C#N)cc(C2(C(C)C)C(C#N)=C(N)Oc3n[nH]c(C)c32)c1 | Serine hydroxymethyltransferase | Plasmodium falciparum | absorbance | IC50 | - | 0.45 µM |
| CC(C)(CCNC(=O)c1ccc2c(c1)OCO2)CN(C[C@@H](O)[C@H](Cc1ccccc1)NC(=O)O[C@H]1CO[C@H]2OCC[C@H]21)S(=O)(=O)c1ccc2c(c1)OCO2 | Protease | HIV-1 | fluorescence | Ki | - | <0.001 µM |
| O=C(O)c1ccc(N2C(=O)C(=Cc3ccc(-c4ccc(Cl)s4)o3)SC2=S)cc1 | NS5 polymerase | Bovine viral diarrhea virus | - | IC50 | - | ≤1 µM |
| CCOC(=O)CCCN(C)c1cc(C#N)cc(C2(C3CCC3)C(C#N)=C(N)Oc3n[nH]c(C)c32)c1 | Serine hydroxymethyltransferase | Plasmodium falciparum | absorbance | IC50 | - | 0.56 µM |
| CON(C)C(=O)OCCCCC(C)(C)CN(C[C@@H](O)[C@H](Cc1ccccc1)NC(=O)O[C@H]1CO[C@H]2OCC[C@H]21)S(=O)(=O)c1ccc2c(c1)OCO2 | Protease | HIV-1 | fluorescence | Ki | - | <0.001 µM |
| O=C(O)CN1C(=O)C(=Cc2ccc(-c3ccc(Cl)c(Cl)c3)s2)SC1=S | NS5 polymerase | Bovine viral diarrhea virus | - | IC50 | - | ≤1 µM |
| Cc1[nH]nc2c1C(c1cc(C#N)cc(N3CCOCC3)c1)(C1CCC1)C(C#N)=C(N)O2 | Serine hydroxymethyltransferase | Plasmodium falciparum | absorbance | IC50 | - | 0.28 µM |
| O=C(O)c1cc2nc(-c3ccc(OCc4ccccc4)cc3)c(CCc3ccccc3)c(=O)n2[nH]1 | RNA-dependent RNA polymerase | Hepatitis C virus | - | IC50 | - | 1–10 µM |
| COc1ccc(S(=O)(=O)N(CCCCC#N)C[C@@H](O)[C@H](Cc2ccccc2)NC(=O)OC(C)(C)C)cc1 | Protease | HIV-1 | fluorescence | Ki | - | 0.001–0.01 µM |
| Fc1ccc(N2CCN(c3cncc(-c4cc5ccccc5s4)n3)CC2)c(F)c1 | UL97 kinase | Cytomegalovirus | - | inhibition | 1 µM | <50% |
| CC(C)(CCCOC(=O)NCCO)CN(C[C@@H](O)[C@H](Cc1ccccc1)NC(=O)O[C@H]1CO[C@H]2OCC[C@H]21)S(=O)(=O)c1ccc2c(c1)OCO2 | Protease | HIV-1 | fluorescence | Ki | - | <0.001 µM |
| CC(C)(C)C(=O)c1cn2c(c(O)c1=O)C(=O)N(Cc1ccc(Cl)c(Cl)c1)CC2 | Integrase | HIV-1 | ELISA | IC50 | - | <0.01 µM |
| FC(F)(F)c1cccc(N2CCN(c3cncc(-c4ccoc4)n3)CC2)c1 | UL97 kinase | Cytomegalovirus | - | inhibition | 10 µM | >15% |
| CCOC(=O)NCCCCCC(C)(C)CN(C[C@@H](O)[C@H](Cc1ccccc1)NC(=O)O[C@H]1CO[C@H]2OCC[C@H]21)S(=O)(=O)c1ccc2c(c1)OCO2 | Protease | HIV-1 | fluorescence | Ki | - | <0.001 µM |
| O=C(O)c1nc(-c2cccc(OCc3ccsc3C(=O)O)c2)[nH]c(=O)c1O | HCV polymerase | Hepatitis C virus | - | IC50 | - | <100 µM |
| CC(C)C(=O)Nc1cn2c(c(O)c1=O)C(=O)N(Cc1ccc(F)c(Cl)c1)CC2 | Integrase | HIV-1 | ELISA | IC50 | - | 0.01–0.1 µM |
| CC(C)(CCCCOC(=O)N1CCOCC1)CN(C[C@@H](O)[C@H](Cc1ccccc1)NC(=O)O[C@H]1CO[C@H]2OCC[C@H]21)S(=O)(=O)c1ccc2c(c1)OCO2 | Protease | HIV-1 | fluorescence | Ki | - | <0.001 µM |
| CC(=O)N(CC(C)C)c1cn2ccn(Cc3cccc(Cl)c3)c(=O)c2c(O)c1=O | Integrase | HIV-1 | ELISA | IC50 | - | 0.01–0.1 µM |
| O=C(O)c1cc2nc(-c3cccc(Oc4ccccc4)c3)cc(Nc3cccc(OCc4ccccc4)c3)n2n1 | RNA-dependent RNA polymerase | Hepatitis C virus | - | IC50 | - | 1–10 µM |
| Cc1[nH]nc2c1C(c1cc(Cl)cc(-c3cccnc3)c1)(C1CCC1)C(C#N)=C(N)O2 | Serine hydroxymethyltransferase | Plasmodium falciparum | absorbance | IC50 | - | 0.3 µM |
| Cc1cccc(N2CCN(c3cncc(-c4csc5ccccc45)n3)CC2C)c1 | UL97 kinase | Cytomegalovirus | - | IC50 | - | <100 µM |
| Cc1[nH]nc2c1C(c1cc(Cl)cc(Cl)c1)(C1CC1)C(C#N)=C(N)O2 | Serine hydroxymethyltransferase | Plasmodium falciparum | absorbance | IC50 | - | 0.38 µM |
| CC(C)(CCC#N)CN(C[C@@H](O)[C@H](Cc1ccccc1)NC(=O)O[C@H]1CO[C@H]2OCC[C@H]21)S(=O)(=O)c1cccc(N)c1 | Protease | HIV-1 | fluorescence | Ki | - | <0.001 µM |
| O=C(OC1OC2COC(=O)c3cc(Oc4c(C(=O)OC5C(O)OC6COC(=O)c7cc(O)c(O)c(O)c7-c7c(cc(O)c(O)c7O)C(=O)OC6C5OC(=O)c5cc(O)c(O)c(O)c5)cc(O)c(O)c4O)c(O)c(O)c3-c3c(cc(O)c(O)c3O)C(=O)OC2C(OC(=O)c2cc(O)c(O)c(O)c2)C1O)c1cc(O)c(O)c(O)c1 | DNA polymerase | Epstein-Barr virus | - | IC50 | - | 97.7 µg/mL |
| O=C(O)CNC(=O)c1cc2nc(-c3ccc(Cl)cc3)cc(-c3ccc(Oc4ccccc4)cc3)n2n1 | RNA-dependent RNA polymerase | Hepatitis C virus | - | IC50 | - | 1–10 µM |
| CCNC(=O)OCCCCC(C)(C)CN(C[C@@H](O)[C@H](Cc1ccccc1)NC(=O)O[C@H]1CO[C@H]2OCC[C@H]21)S(=O)(=O)c1ccc2c(c1)OCO2 | Protease | HIV-1 | fluorescence | Ki | - | <0.001 µM |
| O=C(NCc1cccc(Cl)c1Cl)Nc1ccccc1-c1nc(C(=O)O)c(O)c(=O)[nH]1 | HCV polymerase | Hepatitis C virus | - | IC50 | - | <100 µM |
| COC(=O)NCCCC(C)(C)CN(C[C@@H](O)[C@H](Cc1ccccc1)NC(=O)O[C@H]1CO[C@H]2OCC[C@H]21)S(=O)(=O)c1cccc(N)c1 | Protease | HIV-1 | fluorescence | Ki | - | <0.001 µM |
| CC(=O)c1ccc(-c2cncc(N3CCN(c4ccc(F)cc4F)CC3)n2)cc1 | UL97 kinase | Cytomegalovirus | - | IC50 | - | <10 µM |
| O=C(O)c1ccc(N2C(=O)C(=Cc3ccc(-c4cc5ccccc5o4)o3)SC2=S)cc1 | NS5 polymerase | Bovine viral diarrhea virus | - | IC50 | - | ≤1 µM |
| CC(C)(CCCOC(=O)NN)CN(C[C@@H](O)[C@H](Cc1ccccc1)NC(=O)O[C@H]1CO[C@H]2OCC[C@H]21)S(=O)(=O)c1ccc2c(c1)OCO2 | Protease | HIV-1 | fluorescence | Ki | - | <0.001 µM |
| c1ccc(N2CCN(c3cncc(-c4ccc5ccccc5c4)n3)CC2)cc1 | UL97 kinase | Cytomegalovirus | - | inhibition | 1 µM | <50% |
| O=C(Nc1ccsc1-c1nc(C(=O)O)c(O)c(=O)[nH]1)OCCCc1ccccc1 | HCV polymerase | Hepatitis C virus | - | IC50 | - | <25 µM |
| O=C(O)CN1C(=O)C(=Cc2ccc(-c3cccc(C(F)(F)F)c3)o2)SC1=S | NS5 polymerase | Bovine viral diarrhea virus | - | IC50 | - | ≤1 µM |
| CC(C)(CCCNC(=O)c1ccccc1)CN(C[C@@H](O)[C@H](Cc1ccccc1)NC(=O)O[C@H]1CO[C@H]2OCC[C@H]21)S(=O)(=O)c1ccc2c(c1)OCO2 | Protease | HIV-1 | fluorescence | Ki | - | <0.001 µM |
| N#CC1=C(N)Oc2[nH]ncc2C1(c1cc(Cl)cc(Cl)c1)C1CCC1 | Serine hydroxymethyltransferase | Plasmodium falciparum | absorbance | Ki | - | 0.348 µM |
| O=C(N[C@@H](Cc1cc2ccccc2[nH]1)C(=O)O)c1cc2nc(-c3cccs3)c(C3CCCCC3)c(=O)n2[nH]1 | RNA-dependent RNA polymerase | Hepatitis C virus | - | IC50 | - | <1 µM |
| Cc1cc(C)cc(-c2ccc(C=C3SC(=S)N(c4ccc(C(=O)O)cc4)C3=O)o2)c1 | NS5 polymerase | Bovine viral diarrhea virus | - | IC50 | - | ≤1 µM |
| Cc1ccc(N2CCN(c3cncc(-c4csc5ccccc45)n3)CC2)cc1C | UL97 kinase | Cytomegalovirus | - | IC50 | - | <100 µM |
| CCCCNC(=O)OCCCCC(C)(C)CN(C[C@@H](O)[C@H](Cc1ccccc1)NC(=O)O[C@H]1CO[C@H]2OCC[C@H]21)S(=O)(=O)c1ccc2c(c1)OCO2 | Protease | HIV-1 | fluorescence | Ki | - | <0.001 µM |
| Oc1cc(O)c2c(c1)O[C@H](c1cc(O)c(O)c(O)c1)[C@@H](O)C2 | DNA polymerase | Epstein-Barr virus | - | inhibition | 10 µg/mL | 67.1% |
| CC(C)(CCCNC(=O)C(C)(C)C)CN(C[C@@H](O)[C@H](Cc1ccccc1)NC(=O)O[C@H]1CO[C@H]2OCC[C@H]21)S(=O)(=O)c1ccc2c(c1)OCO2 | Protease | HIV-1 | fluorescence | Ki | - | <0.001 µM |
| COc1ccccc1CCOC(=O)Nc1cscc1-c1nc(C(=O)O)c(O)c(=O)[nH]1 | HCV polymerase | Hepatitis C virus | - | IC50 | - | <25 µM |
| CC(C)OC(=O)NCCCCC(C)(C)CN(C[C@@H](O)[C@H](Cc1ccccc1)NC(=O)O[C@H]1CO[C@H]2OCC[C@H]21)S(=O)(=O)c1cccc(N)c1 | Protease | HIV-1 | fluorescence | Ki | - | <0.001 µM |
| O=C(Nc1cscc1-c1nc(C(=O)O)c(O)c(=O)[nH]1)NC1CCc2ccccc2NC1=O | HCV polymerase | Hepatitis C virus | - | IC50 | - | <25 µM |
| C=CCCOC(=O)NCCCCCC(C)(C)CN(C[C@@H](O)[C@H](Cc1ccccc1)NC(=O)O[C@H]1CO[C@H]2OCC[C@H]21)S(=O)(=O)c1ccc2c(c1)OCO2 | Protease | HIV-1 | fluorescence | Ki | - | <0.001 µM |
| O=C(c1cn2ccn(Cc3cccc(Cl)c3)c(=O)c2c(O)c1=O)N1CCC(O)C1 | Integrase | HIV-1 | ELISA | IC50 | - | 0.01–0.1 µM |
| CSC(=O)NCCCCC(C)(C)CN(C[C@@H](O)[C@H](Cc1ccccc1)NC(=O)O[C@H]1CO[C@H]2OCC[C@H]21)S(=O)(=O)c1cccc(N)c1 | Protease | HIV-1 | fluorescence | Ki | - | <0.001 µM |
| CC(C)(C)c1ccc(S(=O)(=O)Nc2ccccc2-c2nc(C(=O)O)c(O)c(=O)[nH]2)cc1 | HCV polymerase | Hepatitis C virus | - | IC50 | - | <100 µM |
| CCN(CC)C(=O)NCCCC(C)(C)CN(C[C@@H](O)[C@H](Cc1ccccc1)NC(=O)O[C@H]1CO[C@H]2OCC[C@H]21)S(=O)(=O)c1ccc2c(c1)OCO2 | Protease | HIV-1 | fluorescence | Ki | - | <0.001 µM |
| Cc1[nH]nc2c1C(c1cc(Cl)cc(-c3ccc(-c4nn[nH]n4)cc3)c1)(C1CCC1)C(C#N)=C(N)O2 | Serine hydroxymethyltransferase | Plasmodium falciparum | absorbance | IC50 | - | 0.14 µM |
| CC(C)(C)OC(=O)Nc1cscc1-c1nc(C(=O)O)c(O)c(=O)[nH]1 | HCV polymerase | Hepatitis C virus | - | IC50 | - | <25 µM |
| CC(C)(CCCCNC(=S)NCc1ccco1)CN(C[C@@H](O)[C@H](Cc1ccccc1)NC(=O)O[C@H]1CO[C@H]2OCC[C@H]21)S(=O)(=O)c1ccc2c(c1)OCO2 | Protease | HIV-1 | fluorescence | Ki | - | <0.001 µM |
| O=C(O)c1nc(-c2ccccc2NS(=O)(=O)c2cc(Cl)ccc2Cl)[nH]c(=O)c1O | HCV polymerase | Hepatitis C virus | - | IC50 | - | <100 µM |
| CC(C)(CCCCNC(=O)N1CCOCC1)CN(C[C@@H](O)[C@H](Cc1ccccc1)NC(=O)O[C@H]1CO[C@H]2OCC[C@H]21)S(=O)(=O)c1ccc2c(c1)OCO2 | Protease | HIV-1 | fluorescence | Ki | - | <0.001 µM |

ICn is the concentration giving n% inhibition. Percent inhibition refers to the dose given; in toxicity tests it is the harm to the cells. Neighbouring rows are from separate reports. Blank or dashed fields: not listed here.